## Primary screen of a compound library

Data taken from ChEMBL document CHEMBL3988442, “University of Dundee, Small-Polar-MMV Screening Library” (2021).

Results are given as percent effect. The record does not define 0% and 100%; most values in the screen are far below 50% and negative numbers occur (in some assays of this library far below -100). This is part of a subset picked to be rich in strong results. Two or more numbers in one place are separate tests of the same structure; such repeats can differ widely.

A: 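Growth of Mycobacterium tuberculosis over 3 days (7H9 medium with glucose and tyloxapol); the read-out is not stated. Concentration: 50 µM. Higher reads as more growth inhibition (inferred: compounds with an IC50 in retests scored well above the rest). About 69,000 compounds were tested under these conditions; 1.1% (about 760) showed 50% or more at least once.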
B: 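Whole-cell growth test on Mycobacterium tuberculosis, read after 4 days in a medium based on cholesterol and the lipid DPPC; the read-out is not stated. Tested at 50 µM. Higher reads as more growth inhibition (inferred: compounds with an IC50 in retests scored well above the rest). About 69,000 compounds were tested under these conditions; 0.54% (about 370) showed 50% or more at least once.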

{"structure": "CNc1nc(C)cc(NCc2cc(C)cc3c(C)c(C)[nH]c23)n1", "A": "51.15 and 65.28", "B": 57.81}
{"structure": "O=C(COc1ccccc1)NCC1CC1", "A": 33.21}
{"structure": "COCC(=O)NCc1cnc(C)nc1-c1cn(C)c2ccc(OC)cc12", "A": 18.19}
{"structure": "CN(CCOc1ccc(Cl)cc1)Cc1ccc(S(=O)(=O)N(C)C)o1", "A": 22.29, "B": -2.531}
{"structure": "Cc1nsc(C(=O)NCCCc2ccccc2)n1", "A": 59.76, "B": 48.79}
{"structure": "COCCN1CCC(NCc2cccc(C)c2)C1", "stereo": "centres unmarked", "A": -14.49}
{"structure": "Cc1nsc(C(=O)NCCc2ccc(S(N)(=O)=O)cc2)n1", "A": 21.69, "B": 2.64}
{"structure": "COCCSCC(=O)NCc1ccc(N(C)C)cc1", "A": 23.35}
{"structure": "CCN(CC1CCOC1)C(=O)c1ccc(N(C)C)cc1F", "stereo": "centres unmarked", "A": -8.533, "B": 9.085}
{"structure": "CNc1cc2c(nn1)CCN(C(=O)c1cccc3c1OCCO3)C2", "A": 66.33}
{"structure": "O=C(NCCc1ccccn1)C1(n2cnnn2)CCCCC1", "A": -27.23, "B": -14.74}
{"structure": "O=C(CCc1cccc(F)c1F)N1CCN(Cc2ccco2)CC1", "A": 51.96}
{"structure": "C1CC(c2noc(C3CC3)n2)CN(CCOCC2CC2)C1", "stereo": "centres unmarked", "A": -42.56, "B": "3.754 and 0.3684"}
{"structure": "COc1ccc(CCC2CCCCN2)cc1.Cl", "stereo": "centres unmarked", "A": -23.28, "B": -3.788}
{"structure": "CS(=O)(=O)N1CC[C@H](c2nc3ccc(C(F)(F)F)cc3[nH]2)C1", "A": "28.21 and 19.41"}
{"structure": "CCC[C@H]1CN(S(=O)(=O)c2ccccc2)C[C@@H]1N", "A": -3.034}
{"structure": "Cc1sc(Br)cc1S(=O)(=O)NCCCN.Cl", "A": 35.38}
{"structure": "Cc1noc(COCC(=O)N2CCCCC2c2nccs2)n1", "stereo": "centres unmarked", "B": 66.36}
{"structure": "Cn1c(CCNc2nccnc2C#N)nc2ccc(F)cc21", "A": 1.815}
{"structure": "Cc1cnccc1CNCc1ccc(OC23CCCN(CC2)C3)cc1", "stereo": "centres unmarked", "A": 32.18, "B": 22.2}
{"structure": "CCCc1ccc2oc(C(=O)N3CCCN(C)CC3)c(C)c2c1", "A": 48.7, "B": 38.69}
{"structure": "CC(C#N)NS(=O)(=O)c1cccc(C(C)C)c1", "stereo": "centres unmarked", "A": "5.515 and 30.34"}
{"structure": "CCc1nc(CN(C)Cc2nnc(-c3cccs3)o2)cs1", "A": "53.77 and 37.01"}
{"structure": "FC1(F)CCN(Cc2cccnc2)CC12CCN(c1ccccc1)C2.O=C(O)C(F)(F)F.O=C(O)C(F)(F)F.O=C(O)C(F)(F)F", "stereo": "centres unmarked", "A": 79.68, "B": 69.67}
{"structure": "Fc1cccc(OC2CCN(CCn3cc4ccccc4n3)CC2)c1", "A": 60.47, "B": 48.85}
{"structure": "O=C(NC1(C(=O)O)CCCCC1)C1Cc2ccccc2O1", "stereo": "centres unmarked", "A": 7.164}

Once more, the final 2:

{"structure": "Fc1cccc(OC2CCN(CCn3cc4ccccc4n3)CC2)c1", "A": 60.47, "B": 48.85}
{"structure": "O=C(NC1(C(=O)O)CCCCC1)C1Cc2ccccc2O1", "stereo": "centres unmarked", "A": 7.164}